Results of unrelated studies side by side (data: NIAID ChemDB).

All rows: tests in culture; agent: Mycobacterium avium complex

Lines come from different laboratories, so protocols vary. MIC50, MIC90 and the like: level of inhibition, or share of isolates inhibited.

{"smiles": "C[C@H]1COc2c(N3CCN(C)CC3)c(F)cc3c(=O)c(C(=O)O)cn1c23", "strain": "ATCC 35718", "measure": "MBC", "value": ">8 µg/mL"}
{"smiles": "COc1cccc2c1n([O-])c1cccc(OC)c1[n+]2=O", "strain": "101", "measure": "MIC", "value": "16 µg/mL"}
{"smiles": "CCCCCCCCO/N=C1\\[C@H](C)CC(C)(O)[C@H](O[C@@H]2O[C@H](C)C[C@H](N(C)C)[C@H]2O)[C@@H](C)[C@H](OC2C[C@@](C)(OC)[C@@H](O)[C@H](C)O2)[C@@H](C)C(=O)O[C@H](CC)[C@@](C)(O)[C@H](O)[C@H]1C", "strain": "20092", "measure": "MIC", "value": "25 µg/mL"}
{"smiles": "CC[C@H]1OC(=O)[C@H](C)[C@@H](O[C@H]2C[C@@](C)(OC)[C@@H](O)[C@H](C)O2)[C@H](C)[C@@H](O[C@@H]2O[C@H](C)C[C@H](N(C)C)[C@H]2O)[C@](C)(OC)C[C@@H](C)C(=O)[C@H](C)[C@@H](O)[C@]1(C)O", "strain": "MO-1", "measure": "MIC", "value": "2 µg/mL"}
{"smiles": "CN[C@@H]1[C@@H](O)C(O[C@@H]2[C@@H](O)[C@H](OC3O[C@H](CN)[C@@H](O)[C@H](O)[C@H]3O)[C@@H](N)C[C@H]2NC(=O)[C@@H](O)CN)OC[C@]1(C)O", "strain": "T15", "measure": "MIC", "value": "12.5 µg/mL"}
{"smiles": "C[C@@H]1CN(c2c(F)c(N)c3c(=O)c(C(=O)O)cn(C4CC4)c3c2F)C[C@H](C)N1", "strain": "25 isolates", "measure": "MIC50", "value": "4 µg/mL"}
{"smiles": "CCNC(=O)[C@@H](NC(=O)Cc1ccccc1)[C@@H]1N[C@@H](C(=O)NCCNC(=O)[C@@H]2N[C@@H]([C@H](NC(=O)Cc3ccccc3)C(=O)NCC)SC2(C)C)C(C)(C)S1", "strain": "CIPT 140310006", "measure": "MIC", "value": "25 µg/mL"}
{"smiles": "CC[C@H]1OC(=O)[C@H](C)[C@@H](O[C@H]2C[C@@](C)(OC)[C@@H](O)[C@H](C)O2)[C@H](C)[C@@H](O[C@@H]2O[C@H](C)C[C@H](N(C)C)[C@H]2O)[C@](C)(O)C[C@@H](C)CN(C)[C@H](C)[C@@H](O)[C@]1(C)O", "strain": "ATCC 35718", "measure": "MBC", "value": ">8 µg/mL"}
{"smiles": "CC1(C)S[C@@H]2[C@H](NC(=O)C(C(=O)O)c3ccccc3)C(=O)N2[C@H]1C(=O)O", "strain": "CIPT 140310003 (rough)", "measure": "MIC", "value": "25 µg/mL"}
{"smiles": "CC1COc2c(N3CCN(C)CC3)c(F)cc3c(=O)c(C(=O)O)cn1c23", "strain": "18 strains", "measure": "MIC90", "value": "50 µg/mL"}
{"smiles": "CC[C@H]1OC(=O)[C@H](C)[C@@H](O[C@H]2C[C@@](C)(OC)[C@@H](O)[C@H](C)O2)[C@H](C)[C@@H](O[C@@H]2O[C@H](C)C[C@H](N(C)C)[C@H]2O)[C@](C)(OC)C[C@@H](C)C(=O)[C@H](C)[C@@H](O)[C@]1(C)O", "strain": "N-444", "measure": "MBC", "value": "32 µg/mL"}
{"smiles": "CC[C@H]1OC(=O)[C@H](C)[C@@H](OC2C[C@@](C)(OC)[C@@H](O)[C@H](C)O2)[C@H](C)[C@@H](O[C@@H]2O[C@H](C)C[C@H](N(C)C)[C@H]2O)C(C)(O)C[C@@H](C)/C(=N\\OCCCCOc2ccccc2)[C@H](C)[C@@H](O)[C@]1(C)O", "strain": "20092", "measure": "MIC", "value": "12.5 µg/mL"}
{"smiles": "CC(C)NC(=O)N1CCC(CN=c2cc3n(-c4ccc(Cl)cc4)c4ccccc4nc-3cc2Nc2ccc(Cl)cc2)CC1", "strain": "5 strains", "measure": "MIC90", "value": "2 µg/mL"}
{"smiles": "CC[C@H]1OC(=O)[C@H](C)[C@@H](OC(=O)Cc2cccnc2)[C@H](C)[C@@H](O[C@@H]2O[C@H](C)C[C@H](N(C)C)[C@H]2O)C(C)(O)C[C@@H](C)/C(=N\\OCCCOc2ccccc2)[C@H](C)[C@@H](O)[C@]1(C)O", "strain": "20092 (clarithromycin-resistant)", "measure": "MIC", "value": "12.5 µg/mL"}
{"smiles": "CO[C@H]1/C=C/O[C@@]2(C)Oc3c(C)c(O)c4c(O)c(c5c(c4c3C2=O)NC2(CCN(CC(C)C)CC2)N=5)=NC(=O)/C(C)=C\\C=C\\[C@H](C)[C@H](O)[C@@H](C)[C@@H](O)[C@@H](C)[C@H](OC(C)=O)[C@@H]1C", "strain": "242-5", "measure": "MIC", "value": "0.125 µg/mL"}
{"smiles": "Cc1noc(NS(=O)(=O)c2ccc(N)cc2)c1C", "strain": "LA-1", "measure": "MIC", "value": "50 µg/mL"}
{"smiles": "CC[C@H]1OC(=O)[C@H](C)[C@@H](O[C@H]2C[C@@](C)(OC)[C@@H](O)[C@H](C)O2)[C@H](C)[C@@H](O[C@@H]2O[C@H](C)C[C@H](N(C)C)[C@H]2O)[C@](C)(OC)C[C@@H](C)C(=O)[C@H](C)[C@@H](O)[C@]1(C)O", "strain": "20092", "measure": "MIC", "value": ">50 µg/mL"}
{"smiles": "NC1CCN(c2c(F)cc3c(=O)c(C(=O)O)cn(C4CC4)c3c2Cl)C1", "strain": "ATCC 35718", "measure": "MBC", "value": ">8 µg/mL"}
{"smiles": "COc1cccc2c1[n+]([O-])c1cccc(O)c1[n+]2[O-]", "strain": "109", "measure": "MIC", "value": "≥8 µg/mL"}
{"smiles": "CCO/N=C1\\[C@H](C)CC(C)(O)[C@H](O[C@@H]2O[C@H](C)C[C@H](N(C)C)[C@H]2O)[C@@H](C)[C@H](OC2C[C@@](C)(OC)[C@@H](O)[C@H](C)O2)[C@@H](C)C(=O)O[C@H](CC)[C@@](C)(O)[C@H](O)[C@H]1C", "strain": "20096", "measure": "MIC", "value": ">50 µg/mL"}
{"smiles": "CN[C@@H]1[C@H](O[C@H]2[C@H](O[C@H]3[C@H](O)[C@@H](O)[C@H](N=C(N)N)[C@@H](O)[C@@H]3N=C(N)N)O[C@@H](C)[C@]2(O)C=O)O[C@@H](CO)[C@H](O)[C@H]1O", "strain": "CIPT 140310003 (rough)", "measure": "MIC", "value": "6 µg/mL"}
{"smiles": "CC[C@H]1OC(=O)[C@H](C)[C@@H](O[C@H]2C[C@@](C)(OC)[C@@H](O)[C@H](C)O2)[C@H](C)[C@@H](O[C@@H]2O[C@H](C)C[C@H](N(C)C)[C@H]2O)[C@](C)(O)C[C@@H](C)/C(=N\\OC)[C@H](C)[C@@H](O)[C@]1(C)O", "strain": "20092", "measure": "MIC", "value": ">50 µg/mL"}
{"smiles": "CC[C@H]1OC(=O)[C@H](C)[C@@H](O[C@H]2C[C@@](C)(OC)[C@@H](OC(C)=O)[C@H](C)O2)[C@H](C)[C@@H](O[C@@H]2O[C@H](C)C[C@H](N(C)C)[C@H]2O)C(C)(O)C[C@@H](C)/C(=N\\OCCSc2ccccc2)[C@H](C)[C@@H](O)[C@]1(C)O", "strain": "20092 (clarithromycin-resistant)", "measure": "MIC", "value": "12.5 µg/mL"}
{"smiles": "CC[C@H]1OC(=O)[C@H](C)[C@@H](O[C@H]2C[C@@](C)(OC)[C@@H](O)[C@H](C)O2)[C@H](C)[C@@H](O[C@@H]2O[C@H](C)C[C@H](N(C)C)[C@H]2O)[C@](C)(O)C[C@@H](C)C(=O)[C@H](C)[C@@H](O)[C@]1(C)O", "strain": "ATCC 35718", "measure": "MIC", "value": ">8 µg/mL"}
{"smiles": "CCCCCCO/N=C1\\[C@H](C)CC(C)(O)[C@H](O[C@@H]2O[C@H](C)C[C@H](N(C)C)[C@H]2O)[C@@H](C)[C@H](OC2C[C@@](C)(OC)[C@@H](O)[C@H](C)O2)[C@@H](C)C(=O)O[C@H](CC)[C@@](C)(O)[C@H](O)[C@H]1C", "strain": "20096", "measure": "MIC", "value": "6.25 µg/mL"}
{"smiles": "CO[C@H]1/C=C/O[C@@]2(C)Oc3c(C)c(O)c4c(O)c(c5c(c4c3C2=O)NC2(CCN(CC(C)C)CC2)N=5)=NC(=O)/C(C)=C\\C=C\\[C@H](C)[C@H](O)[C@@H](C)[C@@H](O)[C@@H](C)[C@H](OC(C)=O)[C@@H]1C", "strain": "CIPT 140310002", "measure": "MIC", "value": "0.5 µg/mL"}
{"smiles": "CO[C@H]1/C=C/O[C@@]2(C)Oc3c(C)c(O)c4c(=O)c(c5oc6cc(N7CCN(CC(C)C)CC7)cc(=O)c6nc5c4c3=C2O)NC(=O)/C(C)=C\\C=C\\[C@H](C)[C@H](O)[C@@H](C)[C@@H](O)[C@@H](C)[C@H](OC(C)=O)[C@@H]1C", "strain": "N-444", "measure": "MBC", "value": ">4 µg/mL"}
{"smiles": "CCCCO/N=C1\\[C@H](C)CC(C)(O)[C@H](O[C@@H]2O[C@H](C)C[C@H](N(C)C)[C@H]2O)[C@@H](C)[C@H](OC2C[C@@](C)(OC)[C@@H](O)[C@H](C)O2)[C@@H](C)C(=O)O[C@H](CC)[C@@](C)(O)[C@H](O)[C@H]1C", "strain": "20092 (clarithromycin-resistant)", "measure": "MIC", "value": ">50 µg/mL"}
{"smiles": "CC[C@H]1OC(=O)[C@H](C)[C@@H](OC2C[C@@](C)(OC)[C@@H](O)[C@H](C)O2)[C@H](C)[C@@H](O[C@@H]2O[C@H](C)C[C@H](N(C)C)[C@H]2O)C(C)(O)C[C@@H](C)/C(=N\\OCCSc2ccccc2)[C@H](C)[C@@H](O)[C@]1(C)O", "strain": "20096", "measure": "MIC", "value": "12.5 µg/mL"}
{"smiles": "CC[C@H]1OC(=O)[C@H](C)[C@@H](O[C@H]2C[C@@](C)(OC)[C@@H](O)[C@H](C)O2)[C@H](C)[C@@H](O[C@@H]2O[C@H](C)C[C@H](N(C)C)[C@H]2O)[C@](C)(O)C[C@@H](C)/C(=N\\OC)[C@H](C)[C@@H](O)[C@]1(C)O", "strain": "20096 (clarithromycin-resistant)", "measure": "MIC", "value": ">50 µg/mL"}
{"smiles": "CC[C@H]1OC(=O)[C@H](C)[C@@H](OC2C[C@@](C)(OC)[C@@H](O)[C@H](C)O2)[C@H](C)[C@@H](O[C@@H]2O[C@H](C)C[C@H](N(C)C)[C@H]2O)C(C)(O)C[C@@H](C)/C(=N\\OCCCc2ccccc2)[C@H](C)[C@@H](O)[C@]1(C)O", "strain": "20039", "measure": "MIC", "value": "1.56 µg/mL"}

3 of the rows above, restated:

smiles | strain | measure | value
CCCCO/N=C1\[C@H](C)CC(C)(O)[C@H](O[C@@H]2O[C@H](C)C[C@H](N(C)C)[C@H]2O)[C@@H](C)[C@H](OC2C[C@@](C)(OC)[C@@H](O)[C@H](C)O2)[C@@H](C)C(=O)O[C@H](CC)[C@@](C)(O)[C@H](O)[C@H]1C | 20092 (clarithromycin-resistant) | MIC | >50 µg/mL
CCNC(=O)[C@@H](NC(=O)Cc1ccccc1)[C@@H]1N[C@@H](C(=O)NCCNC(=O)[C@@H]2N[C@@H]([C@H](NC(=O)Cc3ccccc3)C(=O)NCC)SC2(C)C)C(C)(C)S1 | CIPT 140310006 | MIC | 25 µg/mL
CN[C@@H]1[C@@H](O)C(O[C@@H]2[C@@H](O)[C@H](OC3O[C@H](CN)[C@@H](O)[C@H](O)[C@H]3O)[C@@H](N)C[C@H]2NC(=O)[C@@H](O)CN)OC[C@]1(C)O | T15 | MIC | 12.5 µg/mL